Compound potency records, mixed from different reports. Data source: NIAID ChemDB in PubChem.

All rows: target-level tests; organism: HIV-1; target: Protease

Neighbouring rows are from separate reports. ICn is the concentration giving n% inhibition. Blank or dashed fields: not listed here.

Nc1cccc(CN2C(=O)N(Cc3ccc4[nH]ncc4c3)N(C(=O)CCc3ccccc3)C[C@@H](O)[C@H]2Cc2ccccc2)c1 ; measure: IC50 ; setting: pH 7.0 ; method: fluorescence ; result: <0.0005 µM
COc1ccc2c(O)c(S(=O)(=O)c3ccc(C)cc3)c(=O)oc2c1 ; measure: IC50 ; result: >50 µM
COc1ccc(S(=O)(=O)N(CC(C)C)C[C@@H](O)[C@H](Cc2ccccc2)NC(=O)O[C@H]2CCCOCC2)cc1 ; measure: Ki ; strain: LAI ; method: FRET ; result: 0.00081 µM
CC(C)(C)NC(=O)[C@@H]1CCCN1C(=O)[C@@H](O)[C@H](Cc1ccccc1)NC(=O)[C@H](CS(N)(=O)=O)NC(=O)COc1cccc2ccccc12 ; measure: IC50 ; result: >0.05 µM
CC(C)C[C@H](NC(=O)C[C@H](O)[C@H](Cc1ccccc1)NC(=O)[C@@H](NC(=O)C1Cc2ccccc2CN1)C(C)C)C(=O)N[C@@H](Cc1ccccc1)C(N)=O ; measure: IC50 ; method: HPLC ; result: 0.025 µM
COc1cccc(CCC(=O)N2C[C@@H](O)[C@@H](Cc3ccccc3)N(Cc3ccc(O)c(OC)c3)C(=O)N2Cc2ccc(O)c(OC)c2)c1 ; measure: IC50 ; method: fluorescence ; result: <0.0005 µM
CC[C@H](C)[C@H](NC(=O)[C@@H](NCC(O)[C@H](CC(C)C)NC(=O)[C@H](Cc1cnc[nH]1)N(C)C(=O)[C@H](Cc1ccccc1)NC(=O)[C@@H]1CCCN1C(=O)OC(C)(C)C)C(C)C)C(=O)NCc1ccccn1 ; measure: Ki ; result: 0.01 µM
CC(C)(C)NC(=O)[C@H]1N(C(=O)[C@@H](O)[C@H](Cc2ccccc2)NC(=O)[C@H](CC(N)=O)NC(=O)OCc2ccccc2)CCC1(C)C ; measure: IC50 ; result: <0.05 µM
COc1ccc(C(O)C(C)Oc2ccc([C@H]3O[C@H](c4ccc(OC(C)C(O)c5ccc(OC)c(OC)c5)c(OC)c4)[C@H](C)[C@H]3C)cc2OC)cc1OC ; measure: IC50 ; method: HPLC ; result: 38.9 µM
COc1cc(CN2C(=O)N(Cc3ccc(O)c(OC)c3)N(C(=O)CCc3ccccc3)C[C@@H](O)[C@H]2Cc2ccccc2)ccc1O ; measure: IC50 ; method: fluorescence ; result: <0.0005 µM
CC(C)CN(C[C@@H](O)[C@H](Cc1ccccc1)NC(=O)O[C@H]1CO[C@H]2OCC[C@H]21)S(=O)(=O)c1ccc(-c2cnc([C@@H](C)O)o2)cc1 ; measure: Ki ; method: substrate cleavage / fluorescence ; result: 0.0000373 µM
Cc1cccc(C)c1OCC(=O)N[C@@H](Cc1ccccc1)[C@@H](O)C[C@H](Cc1ccccc1)NC(=O)[C@H](C(C)C)N1CCNC1=O ; measure: IC50 ; result: <0.0005 µM
CC[C@@H](C)[C@H](NC(=O)[C@@H]1CCCN1C(=O)[C@@H](O)[C@H](Cc1ccccc1)NC(=O)[C@H](CC(N)=O)NC(=O)OC(C)(C)C)C(=O)NCC1CCCCC1 ; measure: IC50 ; result: ~5 µM
CC[C@H](C)[C@H](NC(=O)[C@@H](C[C@H](O)[C@H](CC1CCCCC1)NC(=O)CC(C)(C)C)C(C)C)C(=O)NCc1ccccn1 ; measure: Ki ; result: 0.07 µM
COc1ccc2c(O)c(Oc3ccc4ccc(=O)oc4c3)c(=O)oc2c1 ; measure: IC50 ; result: 4 µM
CC(C)C[C@H](NC(=O)OC(C)(C)C)C(=O)N[C@@H](Cc1ccccc1)C(=O)NC[C@H]1O[C@H](CNC(=O)[C@H](Cc2ccccc2)NC(=O)[C@@H](CC(C)C)NC(=O)OC(C)(C)C)[C@@H](O)[C@@H]1O ; measure: IC50 ; result: >2 µM
CC(=O)N(CC[C@@H](O)[C@H](Cc1ccccc1)NC(=O)c1cccc(O)c1C)[C@@H](Cc1ccccc1)C(=O)NCc1ccccc1 ; measure: IC50 ; result: 1.5 µM
Cc1cccc(C)c1OCC(=O)N[C@@H](Cc1ccccc1)[C@@H](O)C[C@H](Cc1ccccc1)NC(=O)[C@H](C(C)C)N1CCNC(=O)C1=O ; measure: IC50 ; result: <0.0005 µM
O=c1oc2cc(O)ccc2c(O)c1-c1ccccc1 ; measure: IC50 ; result: 5 µM
CCN(CC[C@@H](O)[C@H](Cc1ccccc1)NC(=O)c1cccc(O)c1C)S(=O)(=O)c1ccc(OC)cc1 ; measure: IC50 ; result: 0.9 µM
CC(C)CC(=O)N1C[C@@H](O)[C@@H](Cc2ccccc2)N(Cc2ccc(N)cc2)C(=O)N1Cc1ccc(N)cc1 ; measure: IC50 ; setting: pH 4.5 ; method: fluorescence ; result: <0.001 µM
COc1cnc(CN=Cc2c(O)[nH]c3ccc(S(=O)(=O)N(CC(C)C)C[C@@H](O)[C@H](Cc4ccccc4)NC(=O)O[C@H]4CO[C@H]5OCC[C@H]54)cc23)c(OC)c1C ; measure: Ki ; strain: WT ; method: fluorescence ; result: <0.0001 µM
O=c1oc2cc(OCc3ccccc3)ccc2c(O)c1-c1ccccc1 ; measure: IC50 ; result: 7 µM
CC(C)[C@H](NC(=O)OC(C)(C)C)C(=O)N[C@@H](Cc1ccccc1)C(=O)NC[C@H]1O[C@H](CNC(=O)[C@H](Cc2ccccc2)NC(=O)[C@H](NC(=O)OC(C)(C)C)C(C)C)[C@@H](O)[C@@H]1O ; measure: IC50 ; result: >2 µM
COc1ccc(-c2c(O)c3ccc(OC)cc3oc2=O)cc1 ; measure: IC50 ; result: 3.5 µM
Cc1ccc(S(=O)(=O)N(CC[C@@H](O)[C@H](Cc2ccccc2)NC(=O)c2cccc(O)c2C)C(C)C)cc1 ; measure: IC50 ; result: 1.5 µM
O=C(NCc1ccc2c(c1)[C@H](O)[C@@H](O)c1cc(CNC(=O)OCc3ccccc3)ccc1C2=O)OCc1ccccc1 ; measure: Ki ; result: 0.005 µM
CC(C)[C@H](NC(=O)C1Cc2ccccc2CN1)C(=O)N[C@@H](CC1CCCCC1)[C@@H](O)CC(=O)N[C@@H](C)C(=O)N[C@@H](Cc1ccccc1)C(N)=O ; measure: IC50 ; method: HPLC ; result: 0.017 µM
Cc1c(O)cccc1C(=O)N[C@@H](Cc1ccccc1)[C@H](O)CCN[C@H](C(=O)NC(C)(C)C)c1ccccc1 ; measure: IC50 ; result: 1.8 µM
CC(C)C[C@H](NC(=O)[C@H](Cc1ccccc1)NC(=O)[C@@H]1O[C@@H](C(=O)N[C@@H](Cc2ccccc2)C(=O)N[C@@H](CC(C)C)C(=O)Nc2ccccc2)[C@@H](O)[C@@H]1O)C(=O)Nc1ccccc1 ; measure: IC50 ; result: >2 µM
O=C(O)CCC(CCC(=O)O)(CCC(=O)O)NC(=O)CCC(CCC(=O)NC(CCC(=O)O)(CCC(=O)O)CCC(=O)O)(CCC(=O)NC(CCC(=O)O)(CCC(=O)O)CCC(=O)O)NC(=O)CCCOC(=O)C1(C(=O)OCCCC(=O)NC(CCC(=O)NC(CCC(=O)O)(CCC(=O)O)CCC(=O)O)(CCC(=O)NC(CCC(=O)O)(CCC(=O)O)CCC(=O)O)CCC(=O)NC(CCC(=O)O)(CCC(=O)O)CCC(=O)O)C2c3cc4c5c6c3-c3c(cc7c8c3C6C3c6c-5c(cc5ccc9cc(c-8c3c9c65)C7)C4)C21 ; measure: Ki ; result: 0.1 µM
N[C@@H](CO)C(=O)N[C@@H](Cc1ccccc1)[C@@H](O)C(=O)NCC1CCCCC1 ; measure: IC50 ; result: >1000 µM
CC[C@H](C)[C@H](NC(=O)[C@@H](C[C@H](O)[C@H](CC(C)C)NC(=O)[C@H](CC(N)=O)NC(=O)[C@H](CCC(N)=O)NC(=O)[C@H](CO)NC(=O)[C@@H](N)C(C)C)C(C)C)C(=O)N[C@H](C(=O)O)C(C)C ; measure: Ki ; result: <0.001 µM
COc1cc(CN2C(=O)N(Cc3ccc(O)c(OC)c3)N(C(=O)CCc3ccc(O)cc3)C[C@@H](O)[C@H]2Cc2ccccc2)ccc1O ; measure: IC50 ; method: fluorescence ; result: <0.0005 µM
Cc1c(OCc2ccccc2)ccc2c(O)c(Oc3ccc4ccc(=O)oc4c3)c(=O)oc12 ; measure: IC50 ; result: 7.5 µM
CC(C)(C)OC(=O)N[C@H](Cc1ccc(O)cc1)/C(O)=C(\C#N)c1c(F)c(F)c(F)c(F)c1F ; measure: Ki ; method: HPLC ; result: 0.64 µM
COc1cc(CN2C(=O)N(Cc3ccc(O)c(OC)c3)N(C(=O)CCCc3cccs3)C[C@@H](O)[C@H]2Cc2ccccc2)ccc1O ; measure: IC50 ; method: fluorescence ; result: <0.0005 µM
CC(C)CN(C[C@@H](O)[C@H](Cc1ccccc1)NC(=O)[C@@H](NC(=O)C1CCCN1)C(C)(C)C)S(=O)(=O)c1ccc2c(c1)OCO2 ; measure: IC50 ; result: 0.002 µM
O=c1oc2cc(O)ccc2c(O)c1-c1ccc(O)cc1 ; measure: IC50 ; result: 2 µM
CC(C)CC(=O)N1C[C@@H](O)[C@@H](Cc2ccccc2)N(Cc2ccc(O)cc2)C(=O)N1Cc1ccc(O)cc1 ; measure: IC50 ; setting: pH 4.5 ; method: fluorescence ; result: <0.0005 µM
COc1ccc2c(O)c(-c3ccccc3)c(=O)oc2c1 ; measure: IC50 ; result: 11 µM
CC(=O)N(CC[C@@H](O)[C@H](Cc1ccccc1)NC(=O)c1cccc(O)c1C)[C@@H](Cc1ccccc1)C(=O)NC(C)(C)C ; measure: IC50 ; result: 0.09 µM
Cc1cccc(C)c1OCC(=O)N[C@@H](Cc1ccccc1)[C@@H](O)C[C@H](Cc1ccccc1)NC(=O)[C@H](C(C)C)N1CCC(=O)NC1=O ; measure: IC50 ; result: <0.0005 µM
CC(C)[C@H](NC(=O)OC(C)(C)C)C(=O)N[C@@H](Cc1ccccc1)C(=O)NC[C@@H]1O[C@@H](CNC(=O)[C@H](Cc2ccccc2)NC(=O)[C@H](NC(=O)OC(C)(C)C)C(C)C)[C@@H](O)[C@@H]1O ; measure: IC50 ; result: >2 µM
CC(C)CN(C[C@@H](O)[C@H](Cc1cc(F)cc(F)c1)NC(=O)O[C@H]1CO[C@H]2OC[C@H](NC(C)C)[C@H]21)S(=O)(=O)c1ccc2nc(NC3CC3)sc2c1 ; measure: IC50 ; method: substrate cleavage / fluorescence ; result: 0.0002 µM
CC(=O)N(CCC(O)[C@H](Cc1ccccc1)NC(=O)c1cccc(O)c1C)[C@H](C(=O)NC(C)(C)C)c1ccccc1 ; measure: IC50 ; result: 0.8 µM
CC(C)CN(C[C@@H](O)[C@H](Cc1ccccc1)NC(=O)O[C@H]1CO[C@H]2OCC[C@H]21)S(=O)(=O)c1ccc(C(N)=O)cc1 ; measure: Ki ; method: substrate cleavage / fluorescence ; result: 0.0000089 µM
CC(C)(C)OC(=O)N[C@@H](CC(N)=O)C(=O)N[C@@H](Cc1ccccc1)[C@@H](O)C(=O)NCC1CCCCC1 ; measure: IC50 ; result: <1000 µM
CCN(CC[C@@H](O)[C@H](Cc1ccccc1)NC(=O)c1cccc(O)c1C)S(=O)(=O)c1c(C)cc(C)cc1C ; measure: IC50 ; result: 0.8 µM

A second listing of 5 rows from above:

smiles,measure,setting,strain,method,result
CC(C)C[C@H](NC(=O)C[C@H](O)[C@H](Cc1ccccc1)NC(=O)[C@@H](NC(=O)C1Cc2ccccc2CN1)C(C)C)C(=O)N[C@@H](Cc1ccccc1)C(N)=O,IC50,-,-,HPLC,0.025 µM
Cc1cccc(C)c1OCC(=O)N[C@@H](Cc1ccccc1)[C@@H](O)C[C@H](Cc1ccccc1)NC(=O)[C@H](C(C)C)N1CCC(=O)NC1=O,IC50,-,-,-,<0.0005 µM
COc1cccc(CCC(=O)N2C[C@@H](O)[C@@H](Cc3ccccc3)N(Cc3ccc(O)c(OC)c3)C(=O)N2Cc2ccc(O)c(OC)c2)c1,IC50,-,-,fluorescence,<0.0005 µM
COc1ccc2c(O)c(S(=O)(=O)c3ccc(C)cc3)c(=O)oc2c1,IC50,-,-,-,>50 µM
CC(C)(C)NC(=O)[C@H]1N(C(=O)[C@@H](O)[C@H](Cc2ccccc2)NC(=O)[C@H](CC(N)=O)NC(=O)OCc2ccccc2)CCC1(C)C,IC50,-,-,-,<0.05 µM